Results published in paper PMC13068334, “Host range and zoonotic potential linked to P-like fimbrial (PLF) adhesin specificity in avian pathogenic Escherichia coli” (PLOS Pathogens, 2026).

System: T1, PlfG class II (PlfG II, PL fimbrial adhesin of APEC strain QT598)
T1 construct: adhesin not purified
Assay: hemagglutination inhibition, microtiter
Type: cell-based, Escherichia coli
Conditions: PL-fimbriated bacteria (QT5726 / QT598); turkey and human O+ erythrocytes; PBS; on ice 30 min; anomer not specified

| Compound | minimal HA inhibition concentration |
| --- | --- |
| OC[C@H]1OC(O)[C@H](O)[C@@H](O)[C@H]1O (stereo partly drawn) [D-galactose] | 15 mM |
| C[C@@H]1OC(O)[C@@H](O)[C@H](O)[C@@H]1O (stereo partly drawn) [L-fucose] | 15 mM |
